Assay results reported in patent US8153609B2 (priority 2004, dated 2012).

Test system: CD4+ T cells of MAIDS-infected C57BL6 mice
[1] = after stimulation with staphylococcal enterotoxin SEB

Compound: Nc1ncnc2c1nc(Br)n2[C@@H]1O[C@@H]2CO[P@@](=O)(S)O[C@H]2[C@H]1O
- IFN-γ secretion of CD4+ T cells from the infected mice [1]: slightly increasing
- TNF-α secretion of CD4+ T cells from the infected mice after stimulation with SEB [1]: reducing
- proliferative responses to anti-CD3 mAb (cells of treated infected mice): increased
- significance (p) of effect on SEB stimulated TNF-α secretion by CD4 T cells (infected mice, intracytoplasmic staining, FIG. 1): 0.0012
- TNF-α secretion by CD4 T cells of infected mice (treatment of infected mice, FIG. 1): dramatically reduced
